Measurements reported in PubChem BioAssay AID687043 (Milwaukee Institute for Drug Discovery, 2013).
Only a part is listed here, and it is no random draw. Active and inactive are the calls of the source.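 Rule for the calls: active = inhibition above the average over every tested compound plus 3 SD (cut at about 40% in these data); inactive = the rest.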

These molecules were tested on Hepatitis C virus NS3 helicase (assay: HCV NS3 helicase inhibitors, primary screen, biochemical, fluorescence polarization, ChemBridge library (AID 687043)). Conditions: NS3h Cy5-dT15 DNA binding, at 100 µM, active compounds read high.

Compound | inhibition
O=C(CF)NC(Sc1ccc(Cl)cc1)C(Cl)(Cl)Cl (centres undefined) | inactive: 6.3%
Cc1ccc(SC(NC(=O)c2ccccc2)C(Cl)Cl)cc1 (centres undefined) | inactive: 16.1%
CCCCSP(=O)(OCC(C)C)OCC(C)C | inactive: 15.1%
COC(=O)NC(Sc1ccc(Cl)cc1)C(Cl)Cl (centres undefined) | inactive: 16.1%
